In publication PMC12655733, “Design, Synthesis and Evaluation of the First 2-Alkynyl(aza)indole ^18F Probe Targeting α-Synuclein Aggregates” (Pharmaceuticals, 2025):
pKd: −log10 of the molar value.

Biological target: T1, Tau fibrils (isoform h2N4RTau) (Homo sapiens, UniProt P10636)
T1 construct: made in house; host or cells: Escherichia coli BL21(DE3), pET11d vector
Experiment: Inhibition of thioflavin T binding to Tau fibrils (fluorescence competition), Ki determination
Details: read-out: KdThT for Tau fibrils
Description: The modification of R2 on the phenyl ring in the C-4 position led to an improvement in the affinity towards α-syn fibrils (33, 34, 35, 37, and 39) but not in the C-3 position (36). As the final aim was to obtain a [^18F]-labeled tracer, we prepared compound 40 and observed that it was not a good candidate because of a rather good affinity for Aβ and tau fibrils (around 10–20 nM), but not for α-syn (>100 nM).
Wild-type α-syn and Aβ1-42 were expressed in the Escherichia coli strain BL21(DE3) (Stratagene, La Jolla, CA, USA) and purified as described. The α-syn concentration was determined by measuring the absorbance at 280 nm using the extinction coefficient 5960 M^−1 cm^−1. For the Aβ1-42 peptide, the concentration was determined by a fluorometric method using the reactive compound fluorescamine (Sigma, San Jose, CA, USA) that reacts with primary amino groups to form a fluorescent product. […] The concentration of purified Tau was determined by measuring the absorbance at 280 nm using the extinction coefficient 7575 M^−1 cm^−1.
For assembly into fibrils, α-syn was incubated in 50 mM Tris-HCl, pH 7.5, 150 mM KCl at 37 °C under continuous shaking for 4 days. […] The images were recorded with a Gatan Orius CCD camera (Gatan, Pleasanton, CA, USA). […]

Question: `Cc1ccc2c(c1)sc(-c1ccc(N(C)C)cc1)[n+]2C` [ThT, thioflavin T, reference compound] was tested. Which pKd did it give?
Answer: 6.46
